Here are results for three compounds from patent publication US7390837B2, “Germicidal compositions containing phenylmalonaldehyde-type compounds, or mixtures of phenylmalonaldehyde-type compounds and phthalaldehydes, and methods of using such compositions for disinfection or sterilization” (Ethicon, Inc., priority 2004, dated 2008).

This data set in a line: pigskin staining test. The arrangement: species or system pig; key to Staining: +: tends to stain certain surfaces; −: do not stain. Conditions: for Staining Results: about 10 μL on pigskin, about 24 hours, room temperature; for Staining: summary Table 14.

For the compound `O=Cc1cccc(C=O)c1` [IPA, isophthalaldehyde, reference compound], the Staining entry was “−”. The “Staining Results” value (0.20% solution) is “Non-Staining”. Where the note is “0.20% solution, listed as EPA”, the “Staining Results” value is reported as “non-staining”.
Regarding `O=Cc1ccccc1C=O` [OPA, phthalaldehyde], the Staining entry was “+”. The “Staining Results” value (0.14% solution) is given as “Dark Staining”.
Regarding `O=Cc1ccc(C=O)cc1` [TPA, terephthalaldehyde, reference compound], the Staining entry is “−”.
